23 molecules from patent publication US20230303666A1, “Cell-free antibody engineering platform and neutralizing antibodies for sars-cov-2” (published 2023) can be followed below.

Several values for one entry are separate records, joined by “and”; a condition that tells them apart may be missing. Identical values can stand only once.

B1: SR4c1 (VHH, not shown: small tags and cut ends)
VHH: EVQLVESGGGLVQAGDSLRLSCAASGFQLSCYCMGWFRQAPGKEREFVASITQHAFRTYYADSVKGRFTISRDDARNTVYLQMNSLKPEDTAVYYCAAAETPNILVHENYWGQGTQVTVSS
B2: SR4t6 (VHH, not shown: small tags and cut ends)
VHH: EVQLVVSGRVLVQAGDSLRLSCAASGFQLSCYCVGWFRQAPGKEREFVASITQHAFRTYYADSVKGRFTISRDDARNTVYLQMNSLKPEDTAVYYCAAAETPNILVHESYWGQGTQVTVSS
B3: SR4f3 (VHH, not shown: small tags and cut ends)
VHH: EVQLVVSGRGLVQAGDSLRLSCAASGFQLSCYCVGWFRQAPGKEREFVASITQHAFRTYYADSVKGRFTISRDDARNTVYLQMNSLKPEDTAVYYCAAAETPNILVYENYWGQGTQVTVSS
B4: SR4t4 (VHH, not shown: small tags and cut ends)
VHH: EVQLVVSGRGLVQAGDSLRLSCAASGFQLSCYCVGWFRQAPGKEREFVASITQHAFRTYYADSVKGRFTISRDDARNTVYLQMNSLKPEDTAVYYCAAAETPNILVHENYWGQGTQVTVSS
B5: SR4t5 (VHH, not shown: small tags and cut ends)
VHH: EVQLVVSGRVLVQAGDSLRLSCAASGFQLSCYCVGWFRQAPGKEREFVASITQHAFRTYYADSVKGRFTISRDDARNTVYLQMNSLKPEDTAVYYCAAAETPNILVHENYWGQGTQVTVSS
B6: SR4t9 (VHH, not shown: small tags and cut ends)
VHH: KVQLVVSGRVLVQAGDSLRLSCAATGFQLSCYCVGWFRQAPGKELEFVASITQHAFRTYYADSVKGRFTISRDDARNTVYLQMNSLKPEDTAVYYCAAAETPNILVHESYWGQGTQVTVSS
B7: SR2 (VHH, not shown: small tags and cut ends)
VHH: EVQLVESGGGLVQAGDSLRLSCAASGAFGSNVFMGWFRQAPGKEREFVASITPHHTVTDYADSVRGRFSISADSAKNTVYLQMNSLKPEDTAVYYCAAAIYRNASVLDYWGQGTQVTVSS
B8: SR1 (VHH, not shown: small tags and cut ends)
VHH: EVQLVESGGGLVQAGDSLRLSCAASGKTGRSVIMGWFRQAPDKEREFVATITRGDDTTNYADSVKGRFTISRDDARNTVYLQMNSLKPEDTAVYYCAAVYFVNDCIVDYWGQGTQVTVSS
B9: SR1t2 (VHH, not shown: small tags and cut ends)
VHH: EVRLVESGGGLVLAGDSLRLSCAASGKTGRSVIMGWFRQAPDKEREFVATITRGDDTTNYADSVKGRFTISRDDARNTVYLQMNSLKPEDTAVYYCAAVYFVNDCIVDYWGQGTQVTVSS
B10: SR12 (VHH, not shown: small tags and cut ends)
VHH: EVQLVESGGGLVQAGDSLRLSCAASGAIVHVFAMGWFRQAPGKEREFVASINLDNDATNYADSVKGRFTISRDDARNTVYLQMNSLKPEDTAVYYCNATIFMDSDLGDYWGQGTQVTVSS
B11: SR12c3 (VHH, not shown: small tags and cut ends)
VHH: EVQLVESGGGLVQAGDSLRLSCAASGAIVHVFAMGWFRQAPGKEREFVASINLDNDVTNYADSVKGRFTISRDDARNTVYLQMNSLKPEDTAVYYCNATIFTDSGLGDYWGQGTQVTVSS
B12: SR6t12 (VHH, not shown: small tags and cut ends)
VHH: QVQLVVSGGGLVRAGDSLRLSCTASGDCHVLWRMGWFRQASGKELEFVAAISLDGQFANYADSVRGRFSISADSAENTVYLQMNSLEPEDTAVYYCAALPFLDYWGQGTQVTVSS
B13: SR4t13 (VHH, not shown: small tags and cut ends)
VHH: KVQLVVTGRVLVQAGDSLRLSCVATGFQLSCYCVGWFRQAPGKELEFVASITQHAFRTYYADSVKGRFTISRDDAQNTVYLQMNSLEPEDTAVYYCAAAETPNILVHESYWGQGTQVTVSS
B14: SR6 (VHH, not shown: small tags and cut ends)
VHH: EVQLVESGGGLVQAGDSLRLSCAASGDCHVLWRMGWFRQAPGKEREFVAAISLDGLFTNYADSVRGRFSISADSAKNTVYLQMNSLKPEDTAVYYCAAMPFFDYWGQGTQVTVSS
B15: SR6t5 (VHH, not shown: small tags and cut ends)
VHH: QVQLVVSGGGLVQAGDSLRLSCAASGDCHVLWRMGWFRQAPGKEREFVAAISLDGQFTNYADSVRGRFSISADSAKNTVYLQMNSLKPEDTAVYYCAALPFLDYWGQGTQVTVSS
B16: SR6f3 (VHH, not shown: small tags and cut ends)
VHH: QVQLVVSGGGLVQAGDSLRLSCAASGDCHVLWRMGWFRQAPGKEREFVAAISLDGLFTNYADSVRGRFSISADSAENTVYLQMNSLKPEDTAVYYCAAMPFFDYWGQGTQVTVSS
B17: SR6t4 (VHH, not shown: small tags and cut ends)
VHH: QVQLVESGGGLVQAGDSLRLSCAASGDCHVLWRMGWFRQAPGKEREFVAAISLDGQFTNYADSVRGRFSISADSAKNTVYLQMNSLKPEDTAVYYCAALPFLDYWGQGTQVTVSS
B18: SR6t9 (VHH, not shown: small tags and cut ends)
VHH: QVQLVVSGGGLVQAGDSLRLSCTASGDCHVLWRMGWFRQAPGKELEFVAAISLDGQFANYADSVRGRFSISADSAENTVYLQMNSLKPEDTAVYYCAALPFLDYWGQGTQVTVSS
B19: SR6c3 (VHH, not shown: small tags and cut ends)
VHH: EVQLVESGGGLVQAGDSLRLSCAASGDCHVLWRMGWFRQAPGKEREFVAAISLDGQFTNYADSVRGRFSISADSAKNTVYLQMNSLKPEDTAVYYCAALPFLDYWGQGTQVTVSS
B20: SR6t6 (VHH, not shown: small tags and cut ends)
VHH: QVQLVVSGGGLVQAGDSLRLSCAASGDCHVLWRMGWFRQAPGKEREFVAAISLDGQFTNYADSVRGRFSISADSAENTVYLQMNSLKPEDTAVYYCAALPFLDYWGQGTQVTVSS
B21: SR8 (VHH, not shown: small tags and cut ends)
VHH: EVQLVESGGGLVQAGDSLRLSCAASGDYCMDCFMGWFRQAPGKEREFVAAITPYSFKTYYADSVKGRFTISRDDARNTVYLQMNSLKPEDTAVYYCAANPLDPNWTNSDYWGQGTQVTVSS
B22: SR8t5 (VHH, not shown: small tags and cut ends)
VHH: EVQLVESGGGLVQAGDSLRLSCAASGDYCMDCFMGWFRQAPGKEREFVAAITPYGFKTYYADSVKGRFTFSRDDARNTVYLQMNSLRPEDTAVYYCAANPLDPNWTHSDYRGQGTQVTVSS
B23: SR8c2 (VHH, not shown: small tags and cut ends)
VHH: EVQLVESGGGLVQAGDSLRLSCAASGDYCMDCFMGWFRQAPGKEREFVAAITPYGFKTYYADSVKGRFTISRDDARNTVYLQMNSLKPEDTAVYYCAANPLDPNWTHSDYWGQGTQVTVSS

The test deals with SARS-CoV-2 S deleted of the 27 a.a. at the C-terminal and fused to the NRVRQGYS sequence of HIV-1, o (SARS-CoV-2), P0DTC2. As to the kind of experiment: cell-based or functional assay.
On to B1, for which the Pseudovirus neutralization % inhibition, VHH 5 nM is -3.34% and 3.29%; the Pseudovirus neutralization % inhibition, VHH 50 nM is 8.59% and 11%; the Pseudovirus neutralization % inhibition, VHH 500 nM was 45.2% and 34.3%.
In the case of B2, the Pseudovirus neutralization % inhibition, VHH 5 nM was 9.48% and 4.33%; the Pseudovirus neutralization % inhibition, VHH 50 nM was 47.7% and 31.8%; the Pseudovirus neutralization % inhibition, VHH 500 nM was 73.5% and 66.4%.
Take B3: the Pseudovirus neutralization % inhibition, VHH 5 nM was 3.97% and 0%; the Pseudovirus neutralization % inhibition, VHH 50 nM was 4.58% and 9.11%; the Pseudovirus neutralization % inhibition, VHH 500 nM was 28.7% and 16.9%.
Consider B4, for which the Pseudovirus neutralization % inhibition, VHH 5 nM is 4.93% and -0.626%; the Pseudovirus neutralization % inhibition, VHH 50 nM is 6.99% and 5.37%; the Pseudovirus neutralization % inhibition, VHH 500 nM is 52.9% and 36.5%.
Turning to B5, the Pseudovirus neutralization % inhibition, VHH 5 nM was -0.345% and 2.43%; the Pseudovirus neutralization % inhibition, VHH 50 nM is 20.7% and 6.29%; the Pseudovirus neutralization % inhibition, VHH 500 nM was 50.1% and 35.6%.
For the molecule B6, the Pseudovirus neutralization % inhibition, VHH 5 nM is 12.1% and 6.93%; the Pseudovirus neutralization % inhibition, VHH 50 nM is 77.5% and 73.5%; the Pseudovirus neutralization % inhibition, VHH 500 nM is 94.1% and 91.7%.
As to B7, the Pseudovirus neutralization % inhibition, VHH 5 nM was 1.43% and 4.23%; the Pseudovirus neutralization % inhibition, VHH 50 nM is 4.74% and 4.12%; the Pseudovirus neutralization % inhibition, VHH 500 nM is 31.7% and 19.5%.
For B8, the Pseudovirus neutralization % inhibition, VHH 5 nM is 15.4% and 12.7%; the Pseudovirus neutralization % inhibition, VHH 50 nM is 17.1% and 13.8%; the Pseudovirus neutralization % inhibition, VHH 500 nM is 33% and 14%.
Consider B9, for which the Pseudovirus neutralization % inhibition, VHH 5 nM was -1.91% and 10.2%; the Pseudovirus neutralization % inhibition, VHH 50 nM is 8.43% and 7.24%; the Pseudovirus neutralization % inhibition, VHH 500 nM is 20.3% and 13.4%.
For the molecule B10, the Pseudovirus neutralization % inhibition, VHH 5 nM is 1% and -0.472%; the Pseudovirus neutralization % inhibition, VHH 50 nM is 2.13% and -0.0778%; the Pseudovirus neutralization % inhibition, VHH 500 nM is 8.42% and 4.6%.
Turning to B11, the Pseudovirus neutralization % inhibition, VHH 5 nM was 0.0771% and -2.52%; the Pseudovirus neutralization % inhibition, VHH 50 nM was 13.9% and 9.88%; the Pseudovirus neutralization % inhibition, VHH 500 nM was 51.7% and 36.8%.
As for B12, the Pseudovirus neutralization % inhibition, VHH 5 nM was 16.6% and 3.93%; the Pseudovirus neutralization % inhibition, VHH 50 nM is 61% and 57.4%; the Pseudovirus neutralization % inhibition, VHH 500 nM was 86.4% and 80.3%.
On to B13, for which the Pseudovirus neutralization % inhibition, VHH 5 nM is 13.8% and 4.07%; the Pseudovirus neutralization % inhibition, VHH 50 nM is 62.1% and 51%; the Pseudovirus neutralization % inhibition, VHH 500 nM is 95% and 92.5%.
Take B14: the Pseudovirus neutralization % inhibition, VHH 5 nM was 13.2% and 9.55%; the Pseudovirus neutralization % inhibition, VHH 50 nM was 14.5% and 14.2%; the Pseudovirus neutralization % inhibition, VHH 500 nM is 31.9% and 19.4%.
Turning to B15, the Pseudovirus neutralization % inhibition, VHH 5 nM was 12.1% and 8.81%; the Pseudovirus neutralization % inhibition, VHH 50 nM is 39.5% and 32.5%; the Pseudovirus neutralization % inhibition, VHH 500 nM is 65% and 61.3%.
For B16, the Pseudovirus neutralization % inhibition, VHH 5 nM was 11.5% and 8.65%; the Pseudovirus neutralization % inhibition, VHH 50 nM is 15.5% and 11.9%; the Pseudovirus neutralization % inhibition, VHH 500 nM was 21.4% and 19.3%.
Regarding B17, the Pseudovirus neutralization % inhibition, VHH 5 nM is 20.1% and 17%; the Pseudovirus neutralization % inhibition, VHH 50 nM is 64.8% and 59.5%; the Pseudovirus neutralization % inhibition, VHH 500 nM is 84.2% and 77.8%.
For the molecule B18, the Pseudovirus neutralization % inhibition, VHH 5 nM was 24.6% and 11.2%; the Pseudovirus neutralization % inhibition, VHH 50 nM was 63.9% and 64.8%; the Pseudovirus neutralization % inhibition, VHH 500 nM was 90.3% and 82.3%.
On to B19, for which the Pseudovirus neutralization % inhibition, VHH 5 nM was 27.8% and 24.3%; the Pseudovirus neutralization % inhibition, VHH 50 nM is 66.7% and 58.4%; the Pseudovirus neutralization % inhibition, VHH 500 nM is 86.3% and 75.5%.
Consider B20, for which the Pseudovirus neutralization % inhibition, VHH 5 nM is 4.24% and -1.26%; the Pseudovirus neutralization % inhibition, VHH 50 nM was 32.6% and 28.9%; the Pseudovirus neutralization % inhibition, VHH 500 nM was 69.2% and 62.1%.
Turning to B21, the Pseudovirus neutralization % inhibition, VHH 5 nM was 14.3% and 8.81%; the Pseudovirus neutralization % inhibition, VHH 50 nM was 11.9% and 8.95%; the Pseudovirus neutralization % inhibition, VHH 500 nM is 24% and 16.3%.
With B22, the Pseudovirus neutralization % inhibition, VHH 5 nM was -8.28% and -6.59%; the Pseudovirus neutralization % inhibition, VHH 50 nM is -4.49% and -0.947%; the Pseudovirus neutralization % inhibition, VHH 500 nM is 1.59% and -3.29%.
B23: the Pseudovirus neutralization % inhibition, VHH 5 nM is 4.55% and 1.42%; the Pseudovirus neutralization % inhibition, VHH 50 nM was 3.96% and 3.35%; the Pseudovirus neutralization % inhibition, VHH 500 nM is 12.1% and 10.3%.
